# Protein sequences can lack the tags named with them. The exact form of at least one protein or probe is not confirmed.
# Target: T1, Tn5 transposase (UniProt Q46731)
# T1 sequence: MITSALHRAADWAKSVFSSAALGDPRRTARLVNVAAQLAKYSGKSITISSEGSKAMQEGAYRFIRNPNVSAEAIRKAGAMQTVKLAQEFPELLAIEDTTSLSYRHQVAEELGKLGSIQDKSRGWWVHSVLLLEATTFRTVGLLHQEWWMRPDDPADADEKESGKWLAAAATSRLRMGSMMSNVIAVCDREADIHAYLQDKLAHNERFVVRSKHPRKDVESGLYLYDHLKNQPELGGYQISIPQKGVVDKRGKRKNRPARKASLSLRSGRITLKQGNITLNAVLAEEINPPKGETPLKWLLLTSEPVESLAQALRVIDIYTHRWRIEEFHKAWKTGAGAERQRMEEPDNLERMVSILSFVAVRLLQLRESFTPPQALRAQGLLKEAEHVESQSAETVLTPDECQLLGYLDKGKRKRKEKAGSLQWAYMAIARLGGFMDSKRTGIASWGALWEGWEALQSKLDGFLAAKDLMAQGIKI
# Experiment: activity assay
# Conditions: purified recombinant protein, protein details: produced from pTXB1-Tn5 (Addgene 60240)
# [1] = barcoded transposon used in GET-seq tagmentation, 37 C, set of four oligos
Sequence,"activity on this sequence (tagmentation of Caki-1 gDNA, TAPS-PEG8000, 55 C 7 min, in-house Tn5)",activity on this sequence [1]
AGATGTGTATAAGAGACAG (double strand) [Tn5 mosaic end (ME)],active,–
TCGTCGGCAGCGTCTCCGATCTTCATGAGCAGATGTGTATAAGAGACAG [Tn5ME-A.7],–,active
TCGTCGGCAGCGTCTCCGATCTCCTGAGATAGATGTGTATAAGAGACAG [Tn5ME-A.8],–,active
TCGTCGGCAGCGTCTCCGATCTTCCTGAGCAGATGTGTATAAGAGACAG [Tn5ME-A.2],–,active
TCGTCGGCAGCGTCTCCGATCTCGTACTAGAGATGTGTATAAGAGACAG [Tn5ME-A.1],–,active
